Experimental data: publication PMC4398322, “Snake neurotoxin α-bungarotoxin is an antagonist at native GABAA receptors” (Neuropharmacology, 2015)

Tests used:
[1] = target: T1, α1β1γ2 GABAA receptor (mouse, UniProt P62812 28-455; P50571 26-474; P22723 39-474)
T1 sequence (looked up) 1: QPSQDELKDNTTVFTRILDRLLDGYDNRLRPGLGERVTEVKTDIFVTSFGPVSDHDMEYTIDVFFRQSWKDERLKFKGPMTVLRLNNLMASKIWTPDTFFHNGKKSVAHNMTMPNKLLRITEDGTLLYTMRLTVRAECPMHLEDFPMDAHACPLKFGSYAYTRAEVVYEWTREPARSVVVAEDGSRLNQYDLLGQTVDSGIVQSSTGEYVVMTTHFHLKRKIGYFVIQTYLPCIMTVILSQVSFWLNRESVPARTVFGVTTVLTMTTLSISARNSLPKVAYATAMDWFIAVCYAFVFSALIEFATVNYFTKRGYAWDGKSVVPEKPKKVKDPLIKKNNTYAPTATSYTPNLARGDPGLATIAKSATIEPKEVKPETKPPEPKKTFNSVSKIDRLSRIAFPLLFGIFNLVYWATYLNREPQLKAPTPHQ
T1 sequence (looked up) 2: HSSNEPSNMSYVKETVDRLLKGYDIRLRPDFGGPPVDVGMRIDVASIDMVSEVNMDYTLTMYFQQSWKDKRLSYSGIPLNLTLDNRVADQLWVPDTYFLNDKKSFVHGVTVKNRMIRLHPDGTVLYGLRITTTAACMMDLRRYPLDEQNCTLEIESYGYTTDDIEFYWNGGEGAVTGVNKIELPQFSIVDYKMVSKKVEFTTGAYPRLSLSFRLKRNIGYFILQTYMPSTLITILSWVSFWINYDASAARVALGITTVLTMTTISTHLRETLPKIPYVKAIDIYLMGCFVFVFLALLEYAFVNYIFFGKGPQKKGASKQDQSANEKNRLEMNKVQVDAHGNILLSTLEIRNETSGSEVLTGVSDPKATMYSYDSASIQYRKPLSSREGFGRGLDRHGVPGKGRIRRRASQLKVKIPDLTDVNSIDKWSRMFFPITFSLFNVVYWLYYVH
T1 sequence (looked up) 3: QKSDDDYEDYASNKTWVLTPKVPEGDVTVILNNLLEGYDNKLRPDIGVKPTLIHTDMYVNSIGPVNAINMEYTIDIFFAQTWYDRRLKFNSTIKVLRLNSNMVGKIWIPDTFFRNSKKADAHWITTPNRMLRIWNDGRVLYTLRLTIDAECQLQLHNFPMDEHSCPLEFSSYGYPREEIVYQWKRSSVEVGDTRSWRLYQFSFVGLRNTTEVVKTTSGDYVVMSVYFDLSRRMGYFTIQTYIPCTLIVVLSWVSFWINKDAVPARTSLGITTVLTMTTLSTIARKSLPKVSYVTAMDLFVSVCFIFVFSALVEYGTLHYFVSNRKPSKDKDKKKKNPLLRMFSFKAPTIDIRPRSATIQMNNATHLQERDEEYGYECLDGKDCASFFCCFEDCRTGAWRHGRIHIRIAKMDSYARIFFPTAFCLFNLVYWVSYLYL

[2] = target: T2, α2β1γ2 GABAA receptor (mouse, UniProt P26048 29-451; P50571 26-474; P22723 39-474)
T2 sequence (looked up) 1: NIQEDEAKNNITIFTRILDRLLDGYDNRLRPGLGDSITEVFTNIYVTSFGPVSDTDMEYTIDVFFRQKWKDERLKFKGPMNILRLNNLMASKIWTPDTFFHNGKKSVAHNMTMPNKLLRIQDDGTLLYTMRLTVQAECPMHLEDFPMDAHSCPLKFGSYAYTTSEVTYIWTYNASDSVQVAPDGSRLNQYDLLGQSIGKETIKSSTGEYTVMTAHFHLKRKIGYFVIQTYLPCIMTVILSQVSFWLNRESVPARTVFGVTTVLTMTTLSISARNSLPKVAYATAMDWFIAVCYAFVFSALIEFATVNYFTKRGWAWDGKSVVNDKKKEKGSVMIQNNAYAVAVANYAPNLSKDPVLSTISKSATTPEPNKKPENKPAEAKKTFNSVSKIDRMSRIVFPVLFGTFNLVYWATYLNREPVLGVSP
T2 sequence (looked up) 2: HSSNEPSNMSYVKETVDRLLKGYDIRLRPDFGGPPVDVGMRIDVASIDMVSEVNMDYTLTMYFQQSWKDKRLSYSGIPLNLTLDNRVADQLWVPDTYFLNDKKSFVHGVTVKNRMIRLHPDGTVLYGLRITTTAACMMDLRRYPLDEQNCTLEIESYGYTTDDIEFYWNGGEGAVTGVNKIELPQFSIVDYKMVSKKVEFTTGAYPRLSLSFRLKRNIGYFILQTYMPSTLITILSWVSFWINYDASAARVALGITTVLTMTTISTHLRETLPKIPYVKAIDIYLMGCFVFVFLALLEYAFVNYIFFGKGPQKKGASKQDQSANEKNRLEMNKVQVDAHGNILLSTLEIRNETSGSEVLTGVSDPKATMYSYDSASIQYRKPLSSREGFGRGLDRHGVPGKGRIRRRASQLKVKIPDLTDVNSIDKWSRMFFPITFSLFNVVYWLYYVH
T2 sequence (looked up) 3: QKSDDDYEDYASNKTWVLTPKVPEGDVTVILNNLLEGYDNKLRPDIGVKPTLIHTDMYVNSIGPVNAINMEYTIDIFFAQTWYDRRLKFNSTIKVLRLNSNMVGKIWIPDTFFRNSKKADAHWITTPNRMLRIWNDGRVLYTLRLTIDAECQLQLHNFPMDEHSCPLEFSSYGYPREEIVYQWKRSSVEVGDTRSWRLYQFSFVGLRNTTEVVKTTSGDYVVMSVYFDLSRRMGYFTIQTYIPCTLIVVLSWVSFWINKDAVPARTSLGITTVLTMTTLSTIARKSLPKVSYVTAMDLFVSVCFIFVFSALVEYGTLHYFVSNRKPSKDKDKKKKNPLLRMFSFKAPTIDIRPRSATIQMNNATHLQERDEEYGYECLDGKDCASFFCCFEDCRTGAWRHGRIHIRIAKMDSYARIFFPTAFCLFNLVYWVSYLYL

[3] = target: T3, α1β2γ2 GABAA receptor (mouse, UniProt P62812 28-455; P63137 26-512; P22723 39-474)
T3 sequence (looked up) 1: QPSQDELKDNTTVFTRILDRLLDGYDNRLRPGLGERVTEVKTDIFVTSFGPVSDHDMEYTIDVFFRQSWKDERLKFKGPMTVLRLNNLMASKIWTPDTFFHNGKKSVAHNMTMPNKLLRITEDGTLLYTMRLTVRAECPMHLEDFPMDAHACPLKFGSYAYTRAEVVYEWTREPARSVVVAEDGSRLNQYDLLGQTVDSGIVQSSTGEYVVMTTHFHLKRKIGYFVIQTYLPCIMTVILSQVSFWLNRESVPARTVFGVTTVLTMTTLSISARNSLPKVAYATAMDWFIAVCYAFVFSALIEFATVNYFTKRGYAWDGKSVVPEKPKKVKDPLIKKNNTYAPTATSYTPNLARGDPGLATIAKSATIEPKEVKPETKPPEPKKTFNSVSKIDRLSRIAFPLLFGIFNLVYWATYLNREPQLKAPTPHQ
T3 sequence (looked up) 2: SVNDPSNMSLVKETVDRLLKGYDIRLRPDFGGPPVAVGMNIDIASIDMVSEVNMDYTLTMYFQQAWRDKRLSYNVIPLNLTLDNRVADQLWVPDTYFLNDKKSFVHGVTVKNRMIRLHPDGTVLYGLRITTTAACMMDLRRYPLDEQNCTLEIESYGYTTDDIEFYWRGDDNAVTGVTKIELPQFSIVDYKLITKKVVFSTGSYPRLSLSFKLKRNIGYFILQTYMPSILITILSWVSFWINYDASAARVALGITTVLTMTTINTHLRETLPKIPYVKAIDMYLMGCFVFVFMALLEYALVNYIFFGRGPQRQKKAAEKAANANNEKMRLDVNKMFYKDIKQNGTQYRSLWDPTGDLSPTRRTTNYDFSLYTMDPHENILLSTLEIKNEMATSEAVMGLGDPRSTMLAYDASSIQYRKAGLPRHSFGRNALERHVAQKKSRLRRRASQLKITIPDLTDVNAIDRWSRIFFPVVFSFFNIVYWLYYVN
T3 sequence (looked up) 3: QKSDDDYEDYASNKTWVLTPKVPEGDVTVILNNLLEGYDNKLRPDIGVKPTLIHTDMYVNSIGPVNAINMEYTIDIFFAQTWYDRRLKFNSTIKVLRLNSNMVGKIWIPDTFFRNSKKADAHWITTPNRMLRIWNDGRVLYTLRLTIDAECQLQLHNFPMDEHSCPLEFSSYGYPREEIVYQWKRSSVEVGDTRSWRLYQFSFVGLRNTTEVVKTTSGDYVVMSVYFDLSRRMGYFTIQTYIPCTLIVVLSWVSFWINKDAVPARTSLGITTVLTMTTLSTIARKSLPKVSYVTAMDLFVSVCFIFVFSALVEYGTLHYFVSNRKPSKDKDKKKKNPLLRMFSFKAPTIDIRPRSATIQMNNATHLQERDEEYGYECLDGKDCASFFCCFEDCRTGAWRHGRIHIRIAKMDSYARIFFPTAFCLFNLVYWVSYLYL

[4] = target: T4, α2β2γ2 GABAA receptor (mouse, UniProt P26048 29-451; P63137 26-512; P22723 39-474)
T4 sequence (looked up) 1: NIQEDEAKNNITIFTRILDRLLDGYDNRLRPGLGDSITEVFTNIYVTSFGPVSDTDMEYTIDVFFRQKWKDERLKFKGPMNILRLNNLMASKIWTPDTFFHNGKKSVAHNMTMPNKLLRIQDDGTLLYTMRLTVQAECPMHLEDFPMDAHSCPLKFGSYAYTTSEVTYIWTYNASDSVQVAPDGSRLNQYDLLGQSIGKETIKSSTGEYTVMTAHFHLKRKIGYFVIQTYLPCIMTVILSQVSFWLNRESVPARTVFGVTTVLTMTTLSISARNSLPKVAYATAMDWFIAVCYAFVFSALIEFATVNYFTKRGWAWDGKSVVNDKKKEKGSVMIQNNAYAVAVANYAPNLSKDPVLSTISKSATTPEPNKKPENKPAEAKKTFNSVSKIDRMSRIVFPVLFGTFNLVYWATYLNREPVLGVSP
T4 sequence (looked up) 2: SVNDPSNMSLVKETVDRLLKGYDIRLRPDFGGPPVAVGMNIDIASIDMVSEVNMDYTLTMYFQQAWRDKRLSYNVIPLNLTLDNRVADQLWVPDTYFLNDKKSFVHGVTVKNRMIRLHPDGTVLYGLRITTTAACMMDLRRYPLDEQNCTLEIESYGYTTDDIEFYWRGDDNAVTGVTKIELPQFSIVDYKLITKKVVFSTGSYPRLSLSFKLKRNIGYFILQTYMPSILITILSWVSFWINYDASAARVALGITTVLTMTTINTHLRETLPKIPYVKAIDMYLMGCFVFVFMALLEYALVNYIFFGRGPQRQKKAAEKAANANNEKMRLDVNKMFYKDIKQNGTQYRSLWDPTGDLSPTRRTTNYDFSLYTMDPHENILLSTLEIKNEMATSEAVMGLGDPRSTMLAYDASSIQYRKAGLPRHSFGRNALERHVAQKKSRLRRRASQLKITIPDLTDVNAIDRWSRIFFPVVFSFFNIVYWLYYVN
T4 sequence (looked up) 3: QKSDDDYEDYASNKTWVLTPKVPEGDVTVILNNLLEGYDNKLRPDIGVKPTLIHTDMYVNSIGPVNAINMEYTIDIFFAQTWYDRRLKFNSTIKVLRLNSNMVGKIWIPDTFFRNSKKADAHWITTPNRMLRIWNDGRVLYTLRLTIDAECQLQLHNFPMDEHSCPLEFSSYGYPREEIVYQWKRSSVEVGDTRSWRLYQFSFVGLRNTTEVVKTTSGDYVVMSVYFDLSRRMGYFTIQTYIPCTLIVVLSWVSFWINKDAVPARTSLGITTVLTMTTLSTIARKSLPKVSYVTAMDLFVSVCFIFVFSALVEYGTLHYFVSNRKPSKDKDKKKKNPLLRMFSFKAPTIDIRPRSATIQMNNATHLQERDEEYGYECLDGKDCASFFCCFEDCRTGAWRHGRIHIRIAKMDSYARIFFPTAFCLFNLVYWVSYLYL

B1: α-bungarotoxin coupled with Alexa Fluor 555 (ligand)
chain: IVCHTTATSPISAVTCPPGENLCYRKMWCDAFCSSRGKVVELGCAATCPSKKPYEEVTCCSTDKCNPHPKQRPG
modifications: Alexa Fluor 555 coupled (site not stated)
B1 was tested, and the “mean cell surface fluorescence intensity” value [1] was 592 a.u, the “mean cell surface fluorescence intensity” value [2] was 1060 a.u and the “mean cell surface fluorescence intensity” value [3] was 324 a.u. For the same binder, the “mean cell surface fluorescence intensity” value [4] was 1290 a.u.
